Pooled drug test results. Numbers come from NIAID ChemDB, via PubChem.

All rows: whole-cell or culture tests; organism: Varicella zoster virus; read-out: EC50

Conditions beyond the fields shown may differ between rows. ECn: concentration that inhibits the pathogen or its effect by n%.

CCOC(=O)CC1(O)[C@@H](CO[Si](C)(C)C(C)(C)C)O[C@@H](n2ccc(=O)[nH]c2=O)[C@@H]1O[Si](C)(C)C(C)(C)C ; method: plaque count ; cell line: MRC-5 ; value: >5 µM
O=C(O)P(=O)(O)O ; method: cytopathic effect ; cell line: HEL ; strain: Oka penciclovir-resistant/A ; value: 326.3 µM
CCCCCCCC/C=C/CCCCCCCC(=O)OCC(CO)OCn1cnc2c(=O)[nH]c(N)nc21 ; method: cytopathic effect ; cell line: HEL ; strain: YS ; value: 4.5 µM
O=C(O)CP(=O)(O)O ; method: cytopathic effect ; cell line: HEL ; strain: Oka PMEA-resistant ; value: 153.5 µM
CC#Cc1cn([C@@H]2O[C@H](COP(=O)(O)Oc3ccc(OC)cc3)[C@@H](O)[C@@H]2O)c(=O)[nH]c1=O ; method: plaque count ; cell line: MRC-5 ; strain: G-31 ; value: >100 µM
Nc1nc2c(ncn2C[C@]2(CO)C[C@H]2CO)c(=O)[nH]1 ; method: plaque count ; cell line: MRC-5 ; strain: 6 isolates ; value: 0.035 µg/mL
COc1ncnc2c1ncn2[C@@H]1O[C@H](CO)[C@@H](O)[C@@H]1O ; method: cytopathic effect ; cell line: MRC-5 ; strain: TK- ; value: >100 µM
O=c1[nH]c(=O)n([C@H]2C[C@H](O)[C@@H](CO)O2)cc1/C=C/Br ; method: plaque count ; cell line: HEL ; strain: (TK-)/YS/R ; value: 150 µM
COC(C)c1cn([C@H]2C[C@H](O)[C@@H](CO)O2)c(=O)[nH]c1=O ; method: cytopathic effect ; cell line: HFF ; strain: ELLEN ; value: 66.4 µM
CCCCCCCCc1cc2cn([C@H]3C[C@H](O)[C@@H](CO)O3)c(=O)nc2s1 ; method: plaque count ; cell line: HEL ; strain: OKA ; value: 0.001 µM
CCN(CC)CC(=O)Nc1ccc(NC(=S)Nc2ccc(NC(C)=O)cc2)cc1Cl ; method: ELISA ; cell line: HFF ; strain: ELLEN ; value: >10 µg/mL
O=c1c2ncn(COC(CO)CO)c2nc2[nH]c(-c3ccccc3)cn12 ; method: plaque count ; cell line: HEL ; strain: YS ; value: 3 µg/mL
CCCCCCCC/C=C/CCCCCCCC(=O)O ; method: cytopathic effect ; cell line: HEL ; strain: OKA ; value: >100 µM
CCCCCCCCCCCCc1cc2cn([C@H]3C[C@H](O)[C@@H](CO)O3)c(=O)nc2o1 ; method: plaque count ; cell line: HEL ; strain: YS/R (TK-) ; value: >50 µM
CC(C)(C)[Si](C)(C)OC[C@H]1O[C@@H](n2ccc(=O)[nH]c2=O)[C@H](O[Si](C)(C)C(C)(C)C)/C1=C/CO ; method: plaque count ; cell line: MRC-5 ; value: 3 µM
CC(=O)Nc1ccc(NC(=S)Nc2cc(Cl)c(OCC#N)c(Cl)c2)cc1 ; method: ELISA ; cell line: HFF ; strain: ELLEN ; value: >10 µg/mL
COc1cc(F)c([C@H]2C[C@H](O)[C@@H](CO)O2)cc1[N+](=O)[O-] ; method: plaque count ; cell line: HEL ; strain: TK+/YS ; value: >200 µM
CC#Cc1cn([C@@H]2O[C@H](COP(=O)(N[C@H](C(=O)OC)C(C)C)Oc3ccccc3)[C@@H](O)[C@@H]2O)c(=O)[nH]c1=O ; method: plaque count ; cell line: MRC-5 ; strain: G-31 ; value: >100 µM
Nc1nc2c(ncn2C[C@H](CO)OCP(=O)(O)O)c(=O)[nH]1 ; method: cytopathic effect ; cell line: HEL ; value: 0.056 µM
Cc1cc([C@H]2C[C@H](O)[C@@H](CO)O2)c(F)cc1F ; method: plaque count ; cell line: HEL ; strain: (TK+)/OKA ; value: >200 µM
CC#Cc1cn([C@@H]2O[C@H](COP(=O)(OCC(Cl)(Cl)Cl)Oc3ccccc3)[C@@H](O)[C@@H]2O)c(=O)[nH]c1=O ; method: plaque count ; cell line: MRC-5 ; strain: G-31 ; value: >100 µM
C[C@H](Cn1cnc2c(=O)[nH]c(N)nc21)OCP(=O)(O)O ; method: cytopathic effect ; cell line: HEL ; value: 8.2 µM
COC(=O)/C=C1/[C@@H](O[Si](C)(C)C(C)(C)C)[C@H](n2cc(C)c(=O)n(C)c2=O)O[C@@H]1CO[Si](C)(C)C(C)(C)C ; method: plaque count ; cell line: MRC-5 ; value: >7 µM
Nc1nc(N)c2ncn(C[C@H](CF)OCP(=O)(O)O)c2n1 ; method: cytopathic effect ; cell line: HEL ; value: >100 µM
CCc1cn([C@@H]2S[C@H](CO)[C@@H](O)[C@@H]2F)c(=O)[nH]c1=O ; method: plaque count ; cell line: CCRF-HSB-2 ; strain: OKA ; value: 101 µM
CC(N=[N+]=[N-])c1cn([C@H]2C[C@H](O)[C@@H](CO)O2)c(=O)[nH]c1=O ; method: cytopathic effect ; cell line: HFF ; strain: ELLEN ; value: >250 µM
Cc1cn([C@@H]2O[C@H](CO[Si](C)(C)C(C)(C)C)C3(O[C@H]3C(=O)NO)[C@H]2O[Si](C)(C)C(C)(C)C)c(=O)[nH]c1=O ; method: plaque count ; cell line: MRC-5 ; value: >5 µM
Cc1cn([C@@H]2O[C@H](CO)[C@@H](O)[C@@H]2F)c(=O)[nH]c1=O ; method: plaque count ; cell line: CCRF-HSB-2 ; strain: OKA ; value: 0.11 µM
C#CCCCCCCc1cc2cn([C@H]3C[C@H](O)[C@@H](CO)O3)c(=O)nc2o1 ; method: plaque count ; cell line: HEL ; strain: OKA ; value: 79 µM
Cc1cn([C@@H]2O[C@H](CO)[C@H]2CO)c(=O)[nH]c1=O ; method: plaque count ; cell line: HFF ; strain: V8907 ; value: 0.01 µg/mL
N#Cc1cc([C@H]2C[C@H](O)[C@@H](CO)O2)c(F)cc1F ; method: plaque count ; cell line: HEL ; strain: TK+/YS ; value: >200 µM
O=C(NCc1ccc(Cl)cc1)c1c[nH]c2ccc(C#CCO)cc2c1=O ; method: plaque count ; strain: DIE ; value: 0.2 µM
O=c1[nH]c(=O)n([C@H]2C[C@H](O)[C@@H](COP3(=O)OCc4ccc5ccccc5c4O3)O2)cc1/C=C/Br ; method: plaque count ; cell line: HELF ; strain: OKA ; value: 0.011 µg/mL
Cc1cc([C@@H]2C[C@H](O)[C@@H](CO)O2)c(F)cc1Cl ; method: plaque count ; cell line: HEL ; strain: (TK-)/YS/R ; value: >200 µM
CCCCCOc1ccc(-c2cc3cn([C@H]4C[C@H](O)[C@@H](CO)O4)c(=O)nc3o2)cc1 ; method: plaque count ; cell line: HEL ; strain: OKA ; value: 0.001 µM
CC#Cc1cn([C@@H]2O[C@H](COP(=O)(O)Oc3ccccc3Cl)[C@@H](O)[C@@H]2O)c(=O)[nH]c1=O ; method: plaque count ; cell line: MRC-5 ; strain: G-31 ; value: 100 µM
COC(=O)C(C)(C)NP(=O)(OC[C@H]1O[C@@H](n2cc(/C=C/Br)c(=O)[nH]c2=O)C[C@@H]1O)Oc1ccccc1 ; method: cytopathic effect ; cell line: HEL ; strain: YS ; value: 11 µM
Nc1nc(N)c2ncn(C[C@@H](CF)OCP(=O)(O)O)c2n1 ; method: cytopathic effect ; cell line: HEL ; value: >150 µM
CO[C@H]1C[C@H](n2cc(/C=C/Br)c(=O)[nH]c2=O)O[C@@H]1COP1(=O)OCc2cccc(C)c2O1 ; method: plaque count ; cell line: HELF ; strain: OKA ; value: 24 µg/mL
O=c1[nH]c(=O)n([C@@H]2O[C@H](CO)[C@@H](O)[C@@H]2O)cc1/C=C/Br ; method: cytopathic effect ; cell line: HEL ; strain: Oka PFA-resistant/B ; value: 0.00027 µM
O=c1[nH]c(=O)n([C@@H]2O[C@H](CO)[C@@H](O)[C@@H]2O)cc1/C=C/Cl ; method: plaque count ; cell line: CCRF-HSB-2 ; strain: OKA ; value: 0.0056 µM
O=[N+]([O-])c1cc([C@H]2C[C@H](O)[C@@H](CO)O2)c(F)cc1F ; method: plaque count ; cell line: HEL ; strain: (TK+)/OKA ; value: 87 µM
CCCCCCCOc1ccc(-c2cc3cn([C@H]4C[C@H](O)[C@@H](CO)O4)c(=O)nc3o2)cc1 ; method: plaque count ; cell line: HEL ; strain: YS ; value: 0.006 µM
Cc1cn([C@H]2C/C(=N\O)[C@@H](CO)O2)c(=O)[nH]c1=O ; method: cytopathic effect ; cell line: HEL ; strain: 07/1 (TK-) ; value: >200 µg/mL
Nc1cc([C@H]2C[C@H](O)[C@@H](CO)O2)c(F)cc1F ; method: plaque count ; cell line: HEL ; strain: TK+/YS ; value: >200 µM
CCCCCCCCCCc1cc2cn([C@H]3C[C@H](O)[C@@H](CO)O3)c(=O)nc2o1 ; method: plaque count ; cell line: HEL ; strain: YS ; value: 0.008 µM
CCCCCCCCCCCCc1cc2cn([C@H]3C[C@H](O)[C@@H](CO)O3)c(=O)nc2s1 ; method: plaque count ; cell line: HEL ; strain: YS ; value: 0.2 µM
CCOc1ccc(-c2cc3cn([C@H]4C[C@H](O)[C@@H](CO)O4)c(=O)nc3o2)cc1 ; method: plaque count ; cell line: HEL ; strain: 07/1 (TK-) ; value: 45 µM
COC(=O)[C@H](C)NP(=O)(OC[C@H]1O[C@@H](n2cc(/C=C/Br)c(=O)[nH]c2=O)C[C@@H]1O)Oc1ccccc1 ; method: cytopathic effect ; cell line: HEL ; strain: 07 (TK-) ; value: 139 µM
OC[C@H]1O[C@H](c2ccc(F)cc2F)C[C@@H]1O ; method: plaque count ; cell line: HEL ; strain: (TK+)/OKA ; value: >200 µM
Nc1ccn(C[C@@H](CO)OCP(=O)(O)O)c(=O)n1 ; method: cytopathic effect ; cell line: HEL ; strain: OKA ; value: 0.38 µM
O=c1[nH]c(=O)n([C@H]2C[C@H](O)[C@@H](CO)O2)cc1-c1cc(-c2ccccc2)no1 ; method: plaque count ; cell line: HEL ; strain: OKA ; value: 38 µg/mL
Nc1nc2c(ncn2CCC(CO)CO)c(=O)[nH]1 ; method: cytopathic effect ; cell line: HEL ; strain: Clinical isolate VZV-21 ; value: 1.9 µM
COc1cc(OCc2ccccc2)c(NC(=S)Nc2ccc(NC(C)=O)cc2)cc1Cl ; method: ELISA ; cell line: HFF ; strain: ELLEN ; value: 3.5 µg/mL
OC[C@H]1O[C@H](c2cc(Br)c(F)cc2F)C[C@@H]1O ; method: plaque count ; cell line: HEL ; strain: (TK-)07/1 ; value: >200 µM
Nc1ncc2ncn(C[C@H](CF)OCP(=O)(O)O)c2n1 ; method: cytopathic effect ; cell line: HEL ; value: >100 µM
O=c1[nH]c(=O)n([C@H]2C[C@H](O)[C@@H](COP3(=O)OCc4cccc(-c5ccccc5)c4O3)O2)cc1/C=C/Br ; method: plaque count ; cell line: HELF ; strain: OKA ; value: 0.025 µg/mL
CCCCCCCCc1cc2cn([C@H]3C[C@H](O)[C@@H](CO)O3)c(=O)nc2[nH]1 ; method: plaque count ; cell line: HEL ; strain: YS ; value: 0.48 µM
Nc1nc2c(ncn2C[C@@H](CO)OCP(=O)(O)O)c(=O)[nH]1 ; method: cytopathic effect ; cell line: HEL ; value: 0.007 µM
CCCCCCc1cc2cn([C@H]3C[C@H](O)[C@@H](CO)O3)c(=O)nc2[nH]1 ; method: plaque count ; cell line: HEL ; strain: YS ; value: >50 µM
Nc1nc2c(ncn2COC(CO)CO)c(=O)[nH]1 ; method: cytopathic effect ; cell line: HEL ; strain: Oka BVaraU-resistant ; value: 6.7 µM
CCCCCCCc1cc2cn([C@H]3C[C@H](O)[C@@H](CO)O3)c(=O)nc2o1 ; method: plaque count ; cell line: HEL ; strain: OKA ; value: 0.12 µM
CC(C)(C)[Si](C)(C)OC[C@H]1O[C@@H](n2ccc(=O)[nH]c2=O)[C@H](O[Si](C)(C)C(C)(C)C)[C@]12O[C@@H]2CO ; method: plaque count ; cell line: MRC-5 ; value: >194 µM

3 of the rows above, restated:

{"compound": "Cc1cc([C@@H]2C[C@H](O)[C@@H](CO)O2)c(F)cc1Cl", "method": "plaque count", "cell line": "HEL", "strain": "(TK-)/YS/R", "value": ">200 µM"}
{"compound": "CCCCCCCOc1ccc(-c2cc3cn([C@H]4C[C@H](O)[C@@H](CO)O4)c(=O)nc3o2)cc1", "method": "plaque count", "cell line": "HEL", "strain": "YS", "value": "0.006 µM"}
{"compound": "CCCCCCCC/C=C/CCCCCCCC(=O)OCC(CO)OCn1cnc2c(=O)[nH]c(N)nc21", "method": "cytopathic effect", "cell line": "HEL", "strain": "YS", "value": "4.5 µM"}